Data reported in US7105522B2, “HIV inhibiting pyrazinone derivatives” (Janssen Pharmaceutica, N.V., priority 2001, dated 2006).

System: HIV-1
Assay type: cell-based
Conditions: MT-4 cells
Procedure: A rapid, sensitive and automated assay procedure was used for the in vitro evaluation of anti-HIV agents. An […] T4-cell line, MT-4, which was previously shown (Koyanagi et al., Int. J. Cancer, 36, 445–451, 1985) to be highly susceptible to and permissive for HIV infection, served as the target cell line. Inhibition of the HIV-induced cytopathic effect was used as the end point. The viability of both HIV- and mock-infected cells was assessed spectrophotometrically via the in situ reduction of 3-(4,5-dimethylthiazol-2-yl)-2,5-diphenyltetrazolium bromide (MTT). The 50% cytotoxic concentration (CC50 in μM) was defined as the concentration of compound that reduced the absorbance of the mock-infected control sample by 50%. The percent protection achieved by the compound in HIV-infected cells was calculated by the following formula:
[formula] whereby (ODT)HIV is the optical density measured with a given concentration of the test compound in HIV-infected cells; (ODC)HIV is the optical density measured for the control untreated HIV-infected cells; (ODC)MOCK is the optical density measured for the control untreated mock-infected cells; all optical density values were determined at 540 nm. The dose achieving 50% protection according to the above formula was defined as the 50% inhibitory concentration (IC50 in μM). The ratio of CC50 to IC50 was defined as the selectivity index (SI).

Compound | SI (selectivity index, ratio of CC50 to IC50)
Cc1ccccc1Oc1cn(C)c(=O)c(Nc2ccc(C#N)cc2)n1 [Compound 2, 4-[[3,4-dihydro-4-methyl-6-(2-methylphenoxy)-3-oxopyrazinyl]amino]-benzonitrile] | 25119
Cc1ccc(Oc2cn(C)c(=O)c(Nc3ccc(C#N)cc3)n2)c(C)c1 [Compound 3, 4-[[6-(2,4-dimethylphenoxy)-3,4-dihydro-4-methyl-3-oxopyrazinyl]amino]-benzonitrile] | 158489
Cc1cc(C)c(Sc2cn(C)c(=O)c(Nc3ccc(C#N)cc3)n2)c(C)c1 [Compound 13, 4-[[3,4-dihydro-4-methyl-3-oxo-6-[(2,4,6-trimethylphenyl)thio]pyrazinyl]amino]-benzonitrile] | 6310
Cc1cc(C)c(S(=O)(=O)c2cn(C)c(=O)c(Nc3ccc(C#N)cc3)n2)c(C)c1 [Compound 15, 4-[[3,4-dihydro-4-methyl-3-oxo-6-[(2,4,6-trimethylphenyl)sulfonyl]pyrazinyl]amino]-benzonitrile] | 12589
Cc1ccc(Sc2cn(C)c(=O)c(Nc3ccc(C#N)cc3)n2)c(C)c1 [Compound 21, 4-[[6-[(2,4-dimethylphenyl)thio]-3,4-dihydro-4-methyl-3-oxopyrazinyl]amino]-benzonitrile] | 19953
